# From the supplement of paper PMC8253809
# This is a selection; strong and weak results do not stand in their true shares.
# Legend:
# Assay in all cases: growth inhibition (% activity, log2 RLU normalised to DMSO / staurosporine); higher = more growth inhibition
# Conditions in all cases: 33 µM
# [1] = tested on: DIPGX29 (H3.3 K27M diffuse intrinsic pontine glioma line)
# How it was run: (§1)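 For each approved drug, the growth-inhibition value is the replicate median of per-plate normalised CellTiter-Glo data. Luminescence was log2-transformed and expressed as % activity between solvent and positive control wells. Drugs were applied in triplicate at a single final concentration of about 33 μM for 7 days at 37 °C, 5% CO2 to pHGG cell lines and H9-derived neural stem cells.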
# [2] = tested on: DIPGX37 (H3.3 K27M diffuse intrinsic pontine glioma line)
# How it was run: as §1
# [3] = tested on: DIPGX7 (H3.3 K27M diffuse intrinsic pontine glioma line)
# How it was run: as §1
# [4] = tested on: DIPGX9 (diffuse intrinsic pontine glioma line)
# How it was run: as §1
# [5] = tested on: HGGX39 (paediatric high-grade glioma line)
# How it was run: as §1
# [6] = tested on: HGGX6 (H3.3 G34R paediatric high-grade glioma line)
# How it was run: as §1
# [7] = tested on: SUDIPGIV (diffuse intrinsic pontine glioma line)
# How it was run: as §1
# [8] = tested on: SUDIPGVI (diffuse intrinsic pontine glioma line)
# How it was run: as §1
# [9] = tested on: SUDIPGXIII (diffuse intrinsic pontine glioma line)
# How it was run: as §1
smiles,measurement,setting,value
O=P([O-])([O-])F.[Na+].[Na+],growth inhibition,[1],0.913%
same,growth inhibition,[2],0.346%
same,growth inhibition,[3],0.705%
same,growth inhibition,[4],-0.391%
same,growth inhibition,[5],2.13%
same,growth inhibition,[6],-1.24%
same,growth inhibition,[7],2.48%
same,growth inhibition,[8],-3.7%
same,growth inhibition,[9],-2.89%
